Anti-infective test results gathered from many reports (values: NIAID ChemDB through PubChem).

Shared fields: enzyme or target tests

ICn: concentration for n% inhibition. An empty or dashed field is not shown. Fold resistance has wild type as its base. Two numbers with a dash give a range or band. Percent inhibition refers to the dose given; in toxicity tests it is the harm to the cells. Rows are shuffled and stem from different studies.

smiles,target,agent,changes,dose,method,strain,endpoint,result
COc1cc(OC)c(C=C2SC(=O)N(CC(=O)N3CCN(c4ccccc4)CC3)C2=O)c(OC)c1,Falcipain-2,Plasmodium falciparum,,,fluorescence,,IC50,>50 µM
CN(CC(C)(CCN1CCC(N(CCO)C(=O)OCc2ccc([N+](=O)[O-])cc2)CC1)c1ccsc1)S(=O)(=O)c1ccccc1,CCR5,,CCR5-Y108A,,radiometric,,fold resistance,375
O=C(Nc1nnc(NCc2ccc(Cl)c(Cl)c2)s1)c1ccc(F)cc1F,Polymerase,Human cytomegalovirus,,,,,IC50,>25 µM
O=C(O)C(F)(Br)P(=O)(O)O,DNA polymerase,Herpes simplex virus 2,,,,,IC50,70 µM
O=C(CN1C(=O)SC(=Cc2cccc(F)c2)C1=O)N1CCN(c2ccccc2)CC1,Falcipain-2,Plasmodium falciparum,,,fluorescence,,IC50,33.25 µM
CO[P@](=O)(c1cc(C)cc(/C=C/C#N)c1)c1c(C(N)=O)[nH]c2ccc(Cl)cc12,Reverse transcriptase,HIV,Y181C,,,,IC50,0.361 µM
CCCCCCCCCCCNc1nnc(NC(=O)c2ccc(Br)cc2)s1,Polymerase,Human cytomegalovirus,,,,,IC50,>25 µM
CSC1=NC(=O)CC(=O)N1,Uracil phosphoribosyltransferase,Toxoplasma gondii,,2000 µM,,RH,inhibition,<10%
CC(C)N(C(=O)C1CCCCC1)c1cc(-c2ccccc2)sc1C(=O)O,NS3 ATPase,Hepatitis C virus,,,,,IC50,5–20 µM
O=C(O)CP(=O)(O)O,DNA polymerase,Epstein-Barr virus,,,,,IC50,1.6 µM
CCCCCCCC/C=C/CCCCCCCC(=O)Nc1nnc(NC2CCN(Cc3ccccc3)CC2)s1,Polymerase,Human cytomegalovirus,,,,,IC50,>25 µM
NS(=O)(=O)c1c[nH]c(=O)[nH]c1=O,Uracil phosphoribosyltransferase,Toxoplasma gondii,,,,RH,IC50,>2000 µM
O=C(CN1C(=O)SC(=Cc2ccc(Cl)cc2)C1=O)N1CCN(c2ccccc2)CC1,Falcipain-2,Plasmodium falciparum,,,fluorescence,,IC50,>50 µM
CC(Br)(C(=O)O)P(=O)(O)O,DNA polymerase,Herpes simplex virus 2,,100 µM,,,inhibition,0%
Cc1ccccc1S(=O)(=O)Nc1cc(-c2cccs2)sc1C(=O)O,NS3 ATPase,Hepatitis C virus,,,,,IC50,<5 µM
Cc1cc(SC2=C(O)C[C@@](CCc3ccc(O)cc3)(C(C)C)OC2=O)c(C(C)(C)C)cc1CO,Cytochrome P450 2C9,,,1 µM,,,inhibition,0%
O=c1[nH]cc(Br)c(=O)[nH]1,Uracil phosphoribosyltransferase,Toxoplasma gondii,,2000 µM,,RH,inhibition,<5%
CC(C)(C)c1cc(NS(=O)(=O)c2ccc(Cl)cc2)c(C(=O)O)s1,NS3 ATPase,Hepatitis C virus,,,,,IC50,<5 µM
Cc1cn([C@@H]2O[C@H](CO[Si](C)(C)C(C)(C)C)[C@@]3(OS(=O)(=O)C=C3N)[C@H]2O[Si](C)(C)C(C)(C)C)c(=O)[nH]c1=O,Reverse transcriptase,HIV,RT-P140A,,nucleotide incorporation / radiometric,,fold resistance,0.67
Cc1ccccc1S(=O)(=O)Nc1cc(-c2ccc([N+](=O)[O-])cc2)sc1C(=O)O,NS3 ATPase,Hepatitis C virus,,,,,IC50,<5 µM
CCOC(=O)c1c[nH]c(=O)[nH]c1=O,Uracil phosphoribosyltransferase,Toxoplasma gondii,,2000 µM,,RH,inhibition,<5%
O=P(O)(O)C(Br)P(=O)(O)O,DNA polymerase,Epstein-Barr virus,,,,,IC50,>100 µM
O=C(c1ccccc1Cl)N1C[C@H](CN2CCC(O)(CCCc3ccc(-c4nn[nH]n4)cc3)CC2)[C@@H](c2ccccc2)C1,CCR5,,CCR5-Y108A,,radiometric,,fold resistance,13.64
O=P(O)(O)C(F)(Cl)P(=O)(O)O,DNA polymerase,Epstein-Barr virus,,,,,IC50,>100 µM
O=C(/C=C/c1ccccc1)Nc1nnc(NCCN2CCOCC2)s1,Polymerase,Human cytomegalovirus,,,,,IC50,>25 µM
O=C1NC(=O)C([N+](=O)[O-])C(=O)N1,Uracil phosphoribosyltransferase,Toxoplasma gondii,,2000 µM,,RH,inhibition,<5%
c1ccc(C2SCc3nc4ccccc4n32)cc1,Reverse transcriptase,HIV,RT-K103N Y181I Y188L,,,,fold resistance,>2
O=C(Nc1nnc(NCCN2CCCC2)s1)c1c(Cl)cccc1Cl,Polymerase,Human cytomegalovirus,,,,,IC50,>25 µM
Cc1cn([C@H]2C=C[C@@H](COP(=O)(O)OP(=O)(O)OP(=O)(O)O)O2)c(=O)[nH]c1=O,Reverse transcriptase,HIV,RT-N137D,,nucleotide incorporation / radiometric,,IC50,1.6 µM
O=C(O)C(Br)P(=O)(O)O,DNA polymerase,Epstein-Barr virus,,,,,IC50,25 µM
O=c1cc(Cc2ccccc2)[nH]c(=S)[nH]1,Uracil phosphoribosyltransferase,Toxoplasma gondii,,2000 µM,,RH,inhibition,<5%
C=CCN(C(=O)OCc1ccc([N+](=O)[O-])cc1)C1CCN(CC[C@](C)(CN(C)S(=O)(=O)c2ccccc2)c2ccccc2)CC1,CCR5,,CCR5-Y37A,,radiometric,,fold resistance,0.765
On1ccccc1=S,Uracil phosphoribosyltransferase,Toxoplasma gondii,,,,RH,Ki,1600 µM
O=C(O)C(Cl)P(=O)(O)O,DNA polymerase,Epstein-Barr virus,,,,,IC50,14.5 µM
COc1cc(OC)c(C=C2SC(=O)N(Cc3ccc(F)cc3F)C2=O)c(OC)c1,Falcipain-2,Plasmodium falciparum,,,fluorescence,,IC50,29.08 µM
O=c1[nH]cc(O)c(=O)[nH]1,Uracil phosphoribosyltransferase,Toxoplasma gondii,,2000 µM,,RH,inhibition,<10%
O=C(O)C(F)P(=O)(O)O,DNA polymerase,Epstein-Barr virus,,100 µM,,,inhibition,74%
O=C(O)c1sc(-c2ccccc2)cc1NS(=O)(=O)c1cccc(F)c1,NS3 ATPase,Hepatitis C virus,,,,,IC50,<5 µM
O=c1cc[nH]c(=O)[nH]1,Uracil phosphoribosyltransferase,Toxoplasma gondii,,,,RH,Ki,53 µM

A second listing of 5 rows from above:

O=C(O)c1sc(-c2ccccc2)cc1NS(=O)(=O)c1cccc(F)c1 ; target: NS3 ATPase ; agent: Hepatitis C virus ; endpoint: IC50 ; result: <5 µM
O=C(c1ccccc1Cl)N1C[C@H](CN2CCC(O)(CCCc3ccc(-c4nn[nH]n4)cc3)CC2)[C@@H](c2ccccc2)C1 ; target: CCR5 ; changes: CCR5-Y108A ; method: radiometric ; endpoint: fold resistance ; result: 13.64
O=C1NC(=O)C([N+](=O)[O-])C(=O)N1 ; target: Uracil phosphoribosyltransferase ; agent: Toxoplasma gondii ; dose: 2000 µM ; strain: RH ; endpoint: inhibition ; result: <5%
O=C(O)C(Br)P(=O)(O)O ; target: DNA polymerase ; agent: Epstein-Barr virus ; endpoint: IC50 ; result: 25 µM
O=c1cc[nH]c(=O)[nH]1 ; target: Uracil phosphoribosyltransferase ; agent: Toxoplasma gondii ; strain: RH ; endpoint: Ki ; result: 53 µM